Data as given in PubChem BioAssay AID1259414 (Drosophila RNAi Screening Center, 2018)

- Screen: 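Host factors increasing or decreasing Wolbachia levels in cultured fly cells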 (primary screen)
- System: Drosophila JW18 cells infected with Wolbachia
- Knock-down reagent: long dsRNA against Drosophila genes, 0.25 µg dsRNA per well of a 384-well plate
- Time to read-out: 5 days
- Conditions: cells persistently infected with Wolbachia before knock-down; no added drug
- Measured: 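Imaged fluorescence in situ signal for Wolbachia 23S rRNA per DAPI-counted host cell, given as a robust z-score within each plate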
- Scale: Wolbachia per cell robust z: higher = more Wolbachia per host cell than the plate typical
- Call rule: 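Active if absolute robust z reaches 1.5 in two or more of three replicates, leaving out multi- or no-target dsRNAs, genes unexpressed in JW18 and A1 wells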
The screen tested about 24,000 reagents; this is a random part of those with a known target gene and a result. In the full data, about 1,210 (5%) are marked active. 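Inactive calls also include excluded dsRNAs with several or no targets, genes unexpressed in JW18, and well A1, regardless of score.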 A plus sign joins genes that one reagent is predicted to hit.

Against key (GeneID 37967) [DRSC04285], the values are Wolbachia per cell robust z, rep 1 = -0.176; Wolbachia per cell robust z, rep 2 = -1.78; Wolbachia per cell robust z, rep 3 = -5.03; active. Prx6b + Prx6c + CG12896 [DRSC06148] scored Wolbachia per cell robust z, rep 1 = 0.398; Wolbachia per cell robust z, rep 2 = 0.356; Wolbachia per cell robust z, rep 3 = 0.381; inactive. Depletion of CG13603 (GeneID 42838) [DRSC14606] gave: Wolbachia per cell robust z, rep 1 = -0.126; Wolbachia per cell robust z, rep 2 = -0.0876; Wolbachia per cell robust z, rep 3 = 1.19; inactive. Knock-down of CG14795 (GeneID 31109) [DRSC18513] came out at: Wolbachia per cell robust z, rep 1 = 0.715; Wolbachia per cell robust z, rep 2 = 1.01; Wolbachia per cell robust z, rep 3 = 1.07; inactive. Silencing of CG14795 (GeneID 31109) [DRSC26338] resulted in: Wolbachia per cell robust z, rep 1 = -1.36; Wolbachia per cell robust z, rep 2 = -0.244; Wolbachia per cell robust z, rep 3 = -0.638; inactive. Depletion of shu (GeneID 45360) [DRSC04484] resulted in: Wolbachia per cell robust z, rep 1 = -0.984; Wolbachia per cell robust z, rep 2 = 0.405; Wolbachia per cell robust z, rep 3 = -1.66; inactive.

Silencing of shu (GeneID 45360) [DRSC27390] resulted in: Wolbachia per cell robust z, rep 1 = -1.76; Wolbachia per cell robust z, rep 2 = -0.966; Wolbachia per cell robust z, rep 3 = -2.36; active. CG7290 (GeneID 40211) [DRSC10800] showed Wolbachia per cell robust z, rep 1 = 0.537; Wolbachia per cell robust z, rep 2 = -2.12; Wolbachia per cell robust z, rep 3 = 1.09; inactive. Against CG7290 (GeneID 40211) [DRSC26651] the deposit lists Wolbachia per cell robust z, rep 1 = -0.00641; Wolbachia per cell robust z, rep 2 = -0.473; Wolbachia per cell robust z, rep 3 = -0.531; inactive. After knock-down of nvy (GeneID 37886) [DRSC04705], the record shows Wolbachia per cell robust z, rep 1 = 0.722; Wolbachia per cell robust z, rep 2 = -0.537; Wolbachia per cell robust z, rep 3 = 0.768; inactive. Unc50 (GeneID 41029) [DRSC16561] showed Wolbachia per cell robust z, rep 1 = 0.226; Wolbachia per cell robust z, rep 2 = 1.09; Wolbachia per cell robust z, rep 3 = 0.452; inactive. After knock-down of Unc50 (GeneID 41029) [DRSC28560], the record shows Wolbachia per cell robust z, rep 1 = -0.126; Wolbachia per cell robust z, rep 2 = -0.915; Wolbachia per cell robust z, rep 3 = -0.161; inactive.

For Unc50 (GeneID 41029) [DRSC41269] the deposit lists Wolbachia per cell robust z, rep 1 = -1.6; Wolbachia per cell robust z, rep 2 = 1.06; Wolbachia per cell robust z, rep 3 = 1.08; inactive. Depletion of Ugt36E1 (GeneID 35139) [DRSC02599] resulted in: Wolbachia per cell robust z, rep 1 = -0.29; Wolbachia per cell robust z, rep 2 = 0.291; Wolbachia per cell robust z, rep 3 = 0.299; inactive. With knock-down of Nost (GeneID 8673992) [DRSC18037] the results were Wolbachia per cell robust z, rep 1 = -0.377; Wolbachia per cell robust z, rep 2 = -0.785; Wolbachia per cell robust z, rep 3 = -1.63; inactive. With knock-down of Nost (GeneID 8673992) [DRSC18338], the record shows Wolbachia per cell robust z, rep 1 = -0.711; Wolbachia per cell robust z, rep 2 = 0.374; Wolbachia per cell robust z, rep 3 = 0.35; inactive. Nost (GeneID 8673992) [DRSC26627] scored Wolbachia per cell robust z, rep 1 = -0.657; Wolbachia per cell robust z, rep 2 = -0.939; Wolbachia per cell robust z, rep 3 = 1.7; inactive. For Nost (GeneID 8673992) [DRSC38617], the entry reads Wolbachia per cell robust z, rep 1 = 0.376; Wolbachia per cell robust z, rep 2 = 1.04; Wolbachia per cell robust z, rep 3 = 1.27; inactive.

Against Fatp1 (GeneID 26067068) [DRSC03054], the values are Wolbachia per cell robust z, rep 1 = 0.172; Wolbachia per cell robust z, rep 2 = 0.138; Wolbachia per cell robust z, rep 3 = -2.46; inactive. After knock-down of CG14100 (GeneID 40132) [DRSC10101], the screen gave Wolbachia per cell robust z, rep 1 = -1.55; Wolbachia per cell robust z, rep 2 = 0.54; Wolbachia per cell robust z, rep 3 = -0.248; inactive. CG14562 (GeneID 40439) [DRSC11723] gave Wolbachia per cell robust z, rep 1 = -1.11; Wolbachia per cell robust z, rep 2 = 0.7; Wolbachia per cell robust z, rep 3 = -0.269; inactive. Daao1 (GeneID 36128) [DRSC06131] showed Wolbachia per cell robust z, rep 1 = 0.789; Wolbachia per cell robust z, rep 2 = -0.122; Wolbachia per cell robust z, rep 3 = -0.0246; inactive. After knock-down of Cpr57A + Obp57d [DRSC06708], the screen gave Wolbachia per cell robust z, rep 1 = 0.545; Wolbachia per cell robust z, rep 2 = 0.449; Wolbachia per cell robust z, rep 3 = 0.245; inactive. After knock-down of Cpr57A + Obp57d [DRSC22719], the record shows Wolbachia per cell robust z, rep 1 = 0.571; Wolbachia per cell robust z, rep 2 = -0.676; Wolbachia per cell robust z, rep 3 = 0.238; inactive.
